Measurements reported in PubChem BioAssay AID504761 (Drosophila RNAi Screening Center, 2011).

Test: 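Fly genes whose silencing reduces dengue virus type 2 infection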 (primary screen)
Cells: D.Mel-2 cells from Drosophila
Reagent: long dsRNA against Drosophila genes
Challenge: infection with dengue virus type 2; dose and infection time not stated
Detection: 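Cells stained for dengue envelope protein and imaged; percent of infected cells per well on duplicate plates, ranked by infection, with stained nuclei counted for cell number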
Reading the numbers: infection score: higher = more virus-infected cells; cell count: higher = more cells in the well
Hit rule: 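Low infection ranks in the two replicates (chance level up to 0.065) followed by a retest with a 1.5-fold or larger significant decrease, p below 0.05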
Meaning of the calls: active = confirmed: knock-down lowers infection; inactive = not picked or not confirmed
The deposit covers about 22,000 reagents; shown is an unselected part of those that have a named target and a result. Of all reagents, 116 (0.52%) were called active. 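Calls depend on retest data that are not deposited; infection was ranked per plate without normalising between plates; the unit of the infection score is not given.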 The raw values are shown without normalisation. A number with no mark means an inactive call. The numbers tell different reagents against one gene apart. Names joined by + are all predicted targets of the reagent. Not given: the amount of reagent, the time to read-out.

| target | reagent no. | infection score, replicate 1 | infection score, replicate 2 | cell count, replicate 1 | cell count, replicate 2 |
| --- | --- | --- | --- | --- | --- |
| Gr63a (Gustatory receptor 63a) | 1 | 1.76 | 2.16 | 6705 | 5598 |
| CG18675 | 1 | 3.3 | 1.08 | 6272 | 6038 |
| CG33125 | 1 | 4.78 | 1.19 | 5105 | 5566 |
| CG33125 | 2 | 3.12 | – | 1795 | 380 |
| Phm (Peptidylglycine-alpha-hydroxylating monooxygenase) | 1 | 9.17 | 26.9 | 6259 | 5216 |
| Cpr60D (Cuticular protein 60D) | 1 | 10.2 | 2.49 | 6276 | 6515 |
| CG15468 | 1 | 9.27 | 6.36 | 5941 | 1479 |
| CG4945 | 1 | 9.53 | 6.05 | 6526 | 6433 |
| CG4945 | 2 | 15.3 | 1.06 | 5441 | 567 |
| galla-2 | 1 | 13.6 | – | 5496 | 416 |
| galla-2 | 2 | 5.62 | 1.01 | 6246 | 6512 |
| Tsp (Thrombospondin) | 1 | 1.98 | 9.43 | 6016 | 2610 |
| Tsp (Thrombospondin) | 2 | 2.01 | 5.22 | 6730 | 6375 |
| CG7991 | 1 | 4.08 | 0.71 | 6224 | 7053 |
| CG7991 | 2 | – | 3.61 | 357 | 859 |
| CG15725 | 1 | 7.71 | 3.75 | 5941 | 6483 |
| grass (Gram-positive Specific Serine protease) | 1 | 3.27 | 3.83 | 6331 | 6839 |
| CG33012 | 1 | 25.3 | 10.6 | 6061 | 6230 |
| CG33012 | 2 | 3.87 | 7.03 | 6357 | 6006 |
| GMF (Glia maturation factor) | 1 | 29.4 | 16.2 | 5879 | 5890 |
| PPO2 (Prophenoloxidase 2) | 1 | 3.52 | 1.27 | 6627 | 6922 |
| CG33969 | 1 | 8.9 | 2.56 | 6278 | 6023 |
| EMC8-9 (ER membrane protein complex subunit 8/9) | 1 | 9.62 | 14.5 | 6184 | 6038 |

A stretch from the list above, as a working copy:
| target | reagent no. | infection score, replicate 1 | infection score, replicate 2 | cell count, replicate 1 | cell count, replicate 2 |
| --- | --- | --- | --- | --- | --- |
| CG7991 | 2 | – | 3.61 | 357 | 859 |
| CG15725 | 1 | 7.71 | 3.75 | 5941 | 6483 |
| grass (Gram-positive Specific Serine protease) | 1 | 3.27 | 3.83 | 6331 | 6839 |
| CG33012 | 1 | 25.3 | 10.6 | 6061 | 6230 |
| CG33012 | 2 | 3.87 | 7.03 | 6357 | 6006 |
| GMF (Glia maturation factor) | 1 | 29.4 | 16.2 | 5879 | 5890 |
| PPO2 (Prophenoloxidase 2) | 1 | 3.52 | 1.27 | 6627 | 6922 |

Continued.
| target | reagent no. | infection score, replicate 1 | infection score, replicate 2 | cell count, replicate 1 | cell count, replicate 2 |
| --- | --- | --- | --- | --- | --- |
| zip (zipper) | 1 | 4.86 | 8.6 | 6358 | 5407 |
| zip (zipper) | 2 | 1.99 | 16.5 | 5791 | 4457 |
| zip (zipper) | 3 | 17.3 | 10 | 3799 | 4089 |
| Nmd3 (Nonsense-mediated mRNA 3) | 1 | 5.8 | 12 | 1121 | 2796 |
| Nmd3 (Nonsense-mediated mRNA 3) | 2 | 3.13 | 11.7 | 5823 | 6135 |
| CG8778 | 1 | 11.8 | 7.16 | 6628 | 7169 |
| Ahcy (Adenosylhomocysteinase) | 1 | 5.45 | 2.1 | 5486 | 5844 |
| Ahcy (Adenosylhomocysteinase) | 2 | 18.4 | 5.56 | 5925 | 5949 |
| Rad23 | 1 | 4.82 | 1.17 | 6243 | 6828 |
| Fam92 | 1 | 18 | 17 | 6601 | 6322 |
| Fam92 | 2 | 21.2 | 0.34 | 3784 | 296 |
| sba (six-banded) | 1 | 4.47 | 4.74 | 5903 | 5380 |
| sba (six-banded) | 2 | 0.49 | 1.78 | 6297 | 4834 |
| sba (six-banded) | 3 | 1.9 | 0.52 | 6845 | 6481 |
| CG14907 + Mettl4 | 1 | 4.12 | 5.33 | 6328 | 6624 |
| CG14907 + Mettl4 | 2 | 3.73 | 3.22 | 6352 | 6766 |
| r (rudimentary) | 1 | 26.8 | 1.42 | 5157 | 7031 |
| r (rudimentary) | 2 | 5.99 | 14 | 6946 | 5761 |
| CG11537 | 1 | 7.72 | 8.37 | 6827 | 6473 |
| Hsp23 (Heat shock protein 23) | 1 | 12.4 | 14.3 | 5968 | 5341 |
| Hsp23 (Heat shock protein 23) | 2 | 16 | 14.6 | 2011 | 3899 |
| l(1)sc (lethal of scute) | 1 | 0.61 | 6.42 | 6426 | 5947 |
| l(1)sc (lethal of scute) | 2 | 18 | 13.5 | 4758 | 3264 |
| mthl11 (methuselah-like 11) | 1 | 1.02 | 2.03 | 6355 | 6296 |
| mthl11 (methuselah-like 11) | 2 | 17.2 | 6.02 | 4764 | 2891 |
| CG32266 | 1 | 4.21 | 3.53 | 6288 | 5607 |
| CG32266 | 2 | 21.4 | 12.8 | 5686 | 688 |
| Pex19 (Peroxin 19) | 1 | 14.3 | 11.1 | 6473 | 5893 |
| EndoG (Endonuclease G) | 1 | 6.81 | 6.55 | 6354 | 6594 |
| EndoG (Endonuclease G) | 2 | 7.07 | 21.8 | 6646 | 5147 |
| EndoG (Endonuclease G) | 3 | 3.4 | 2.89 | 5734 | 6119 |
| CG14355 | 1 | 6.78 | 17.8 | 6197 | 6183 |
| CG12438 | 1 | 5.33 | 8.38 | 6346 | 1814 |
| Jon99Cii (Jonah 99Cii) | 1 | 7.9 | – | 6559 | 311 |
| Jon99Cii (Jonah 99Cii) | 2 | 18.7 | 3.43 | 5821 | 6243 |
